Earlier results on 1 substance are cited in US20230056788A1, “METHODS AND COMPOSITIONS FOR THE INHIBITION OF HEPATITIS B AND HEPATITIS D VIRUS INFECTIONS” (priority 2020, published 2023).

The test system of the series is HBV. To be noted: in vivo.

Turning to (2′OMeA, 2′OMe-5-MeC)20, the safety and tolerability result was “safe, well tolerated”.
